Experiments:
[1] = general procedure: Fmoc solid-phase peptide synthesis; Rink amide resin (Compound 8); Wang resin (Compound 9); 2-chlorotrityl chloride resin for side-chain moieties; DIPC/HOBt; settings: whole synthesis
[2] = general procedure: Fmoc solid-phase peptide synthesis; Fmoc-Rink amide resin; DIPC/HOBt; settings: whole synthesis, HPLC Method D

For “Tyr L-norvaline Glu Gly Thr Phe Thr Ser Asp Tyr Ser Ile L-norvaline Leu Asp Lys Ile Ala Gln Lys Ala Phe Val Gln Trp Leu Ile Ala Gly Gly Pro Ser Ser Gly Ala Pro Pro Pro Ser-NH2”, the “final HPLC purity” value ([1]; HPLC Method A) was 94.21%.
For “Tyr L-norvaline Glu Gly Thr Phe Thr Ser Asp Tyr Ser Ile Aib Leu Asp Lys Ile Ala Gln Lys Ala Phe Val Gln Trp Leu Ile Ala Gly Gly Pro Ser Ser Gly Ala Pro Pro Pro Ser-NH2”, the “final HPLC purity” value ([1]; HPLC Method B) was 96.09%.
For “Tyr Aib Glu Gly Thr Phe Thr Ser Asp Tyr Ser Ile L-homoalanine Leu Asp Lys Ile Ala Gln Lys Ala Phe Val Gln Trp Leu Ile Ala Gly Gly Pro Ser Ser Gly Ala Pro Pro Pro Ser-NH2”, the “final HPLC purity” value ([1]; HPLC Method D) was 96.79%.
In the case of “Tyr Aib Glu Gly Thr Phe Thr Ser Asp Tyr Ser Ile L-norvaline Leu Glu Lys Ile Ala Ala Gln Glu Phe Val Asn Trp Leu Leu Ala Gly Gly Pro Ser Ser Gly Ala Pro Pro Pro Ser Lys-NH2”, the “final HPLC purity” value [2] is reported as 94.55%.
For “Tyr Aib Glu Gly Thr Phe Thr Ser Asp Tyr Ser Ile L-norleucine Leu Asp Lys Ile Ala Gln Lys Ala Phe Val Gln Trp Leu Ile Ala Gly Gly Pro Ser Ser Gly Ala Pro Pro Pro Ser-NH2”, the “final HPLC purity” value ([1]; HPLC Method D) was 95.43%.

Source: US12622948B2 (SUN PHARMACEUTICAL INDUSTRIES LIMITED, priority 2020, dated 2026)
